Data as given in publication doi:10.1101/2021.04.08.438924 (bioRxiv, 2021).

Target: T1, FLAG-tagged full-length CLEC4G, affinity-purified (human, UniProt Q6UXB4 1-293)
T1 sequence: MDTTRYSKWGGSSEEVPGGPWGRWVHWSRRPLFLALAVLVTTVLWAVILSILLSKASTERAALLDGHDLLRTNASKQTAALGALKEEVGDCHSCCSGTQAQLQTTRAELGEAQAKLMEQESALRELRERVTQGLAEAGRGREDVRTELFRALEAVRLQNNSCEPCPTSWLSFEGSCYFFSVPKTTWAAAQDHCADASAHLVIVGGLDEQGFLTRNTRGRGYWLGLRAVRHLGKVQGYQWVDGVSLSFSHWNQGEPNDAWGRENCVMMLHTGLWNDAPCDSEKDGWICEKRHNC
Test: pull-down

B1: SARS-CoV-2 NTD ([…]) with a C-terminal His tag (domain or fragment)
chain: not shown
  binding result: binds
